In publication PMC6332427, “Drug Discovery of Host CLK1 Inhibitors for Influenza Treatment” (Molecules, 2015):

Test system: influenza virus A/PR/8/34 (H1N1)

Substance: Hispidulin [J20353]
- Pre-Treatment Assay SI (selective index, CC50/EC50): 3.19
- Simultaneous Treatment Assay SI (selective index, CC50/EC50): 11.47
